PubChem BioAssay AID504761 – Drosophila RNAi Screening Center – 2011
In all, the deposit lists about 22,000 reagents; shown is a random part of those with a known target gene and a result. Over the whole deposit, 116 (0.52%) were called active. 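Calls depend on retest data that are not deposited; infection was ranked per plate without normalising between plates; the unit of the infection score is not given.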 Raw values vary from plate to plate and are shown uncorrected. A number with no mark means an inactive call. Further read-outs or replicates are left out here. Not stated in the record: the amount of reagent, the time to read-out.

Screen: 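Insect host genes that dengue virus relies on to spread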 (primary screen)
Cells: D.Mel-2 cells from Drosophila
Knock-down reagent: long dsRNA against Drosophila genes
Challenge: infection with dengue virus type 2; dose and infection time not stated
Detection: 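Per well on two replicate plates, imaging gave the percent of cells positive for viral envelope protein, ranked by infection, and a nuclear count of cells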
Direction: infection score: higher = more virus-infected cells; cell count: higher = more cells in the well
Rule for the call: 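Very low infection ranking in both replicate wells (chance probability at most 0.065), then a retest showing infection dropped 1.5-fold or more at p below 0.05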
Calls: active = confirmed: knock-down lowers infection; inactive = not picked or not confirmed

Silencing of wor [DRSC03637] came out at: infection score, replicate 1 = 11.9; cell count, replicate 1 = 6121.
Against wor [DRSC25651], the entry reads infection score, replicate 1 = 2.34; cell count, replicate 1 = 6321.
Against CG11617 [DRSC00321], the values are infection score, replicate 1 = 4.82; cell count, replicate 1 = 6369.
CG11617 [DRSC21786] gave infection score, replicate 1 = 5.49; cell count, replicate 1 = 6780.
CG11617 [DRSC28154] scored infection score, replicate 1 = 26.7; cell count, replicate 1 = 4010.
Depletion of edin [DRSC09488] came out at: infection score, replicate 1 = 3.21; cell count, replicate 1 = 5852.
For CSN1a [DRSC01951], the values are infection score, replicate 1 = 13; cell count, replicate 1 = 6140.
After knock-down of CG32982 [DRSC02677], the screen gave infection score, replicate 1 = 1.42; cell count, replicate 1 = 6597.
With knock-down of CG32982 [DRSC03269] the results were infection score, replicate 1 = 7.53; cell count, replicate 1 = 5114.
Knock-down of CG32982 [DRSC21912] came out at: infection score, replicate 1 = 12.2; cell count, replicate 1 = 5941.
With knock-down of CG16826 [DRSC02527] the results were infection score, replicate 1 = 2.71; cell count, replicate 1 = 6946.
After knock-down of Rpn9 [DRSC16840], the screen gave infection score, replicate 1 = 12.5; cell count, replicate 1 = 4223.
Silencing of Rpn9 [DRSC27177] gave: infection score, replicate 1 = 1; cell count, replicate 1 = 4819.
Silencing of Cbp80 [DRSC18450] gave: cell count, replicate 1 = 46.
